Data as given in patent US9078928B2, “Conjugated molecules comprising a peptide derived from the CD4 receptor coupled to a polyanionic polypeptide for the treatment of AIDS” (Institut Pasteur, priority 2011, dated 2015).
Read-outs that look alike come from different tables or passages of the source.

Key:
HIV-1 92HT599 (B-X4) = test: Antiviral assay on clinical isolate in PHA-P-activated PBMCs, RT activity (Example 4); format: cell-based; conditions: clade-tropism B-X4; mean ± s.d. of triplicate
Source text: (§1) The antiviral assay was extended to a series of more clinically relevant primary strains, including 92UG029, SF162, 92US723, 96USHIPS4, 92HT599 and 98IN017.
(§2) Phytohemagglutinin (PHA)-P-activated PBMCs were infected either with the reference lymphotropic HIV-1/LAI strain (Barre-Sinoussi, et al., 1983) or with the reference macrophage-tropic HIV-1/Ba-L strain (Gartner, et al., 1986). These viruses were amplified in vitro with PHA-P-activated blood mononuclear cells. Viral stocks (including clinical isolates) were titrated using PHA-P-activated PBMCs, and 50% tissue culture infectious doses (TCID50) were calculated using Kärber's formula (Kärber, 1931). Viruses (125 TCID50) were incubated for 30 min with five concentrations (1:5 dilutions between 500 nM and 320 pM) of each of the molecules to be tested and added to 150 000 PBMCs (m.o.i.˜0.001). Cell supernatants were collected at day 7 post-infection and stored at −20° C. In some cases, the compounds were added to the cells prior to viral challenge. Viral replication was measured by quantifying reverse transcriptase (RT) activity in the cell culture supernatants using the Lenti RT Activity Kit (Cavisi) and AZT was used as reference anti-HIV-1 molecule. In parallel, cytotoxicity was evaluated on day 7 in uninfected PHA-P-activated PBMC using a colorimetric methyl-tetrazolium salt (MTS/PMS) assay (Promega). Experiments were performed in triplicate and 50, 70 and 90% effective doses (ED) were calculated using SoftMaxPro software.

HIV-1 92UG029 (A-X4) = test: as above; format: cell-based; conditions: clade-tropism A-X4; mean ± s.d. of triplicate
Source text: as §1, §2

HIV-1 92US723 (B-R5/X4) = test: as above; format: cell-based; conditions: clade-tropism B-R5/X4; mean ± s.d. of triplicate
Source text: as §1, §2

[1] = tested on: HIV-1 96USHIPS4 (B-R5/X4); test: as above; format: cell-based; conditions: clade-tropism B-R5/X4; mean ± s.d. of triplicate
Source text: as §1, §2

HIV-1 98IN017 (C-X4) = test: as above; format: cell-based; conditions: clade-tropism C-X4; mean ± s.d. of triplicate
Source text: as §1, §2

HIV-1 SF162 (B-R5) = test: as above; format: cell-based; conditions: clade-tropism B-R5; mean ± s.d. of triplicate
Source text: as §1, §2

SHIVsf162p3 = format: cell-based; conditions: TZN-bl cells, Luc signal after 48 h
Experimental: TZN-bl cells that express Luceriferase under the control of the HIV LTR were used. These cells express high levels of CD4 and CCR5 and can be easily infected with HIV-1/-2 and SIV. Upon infection of these cells, viral Tat will induce transcription of Luciferase. The Luc signal is proportional to the amount of infection. We add a serial dilution of the compound to be tested (mCD4, mCD4-HS12 or mCD4-P3YSO3) to cells and subsequently add virus. The obtained Luc signal is read out after 48 h.
The test was carried out in duplicate.

clinical HIV-1 isolates = test: Antiviral assay on the series of clinical HIV-1 isolates, summary in text (Example 4); format: cell-based; conditions: primary strains of Table 5
Source text: as §1
as §2, with “Cell supernatants were collected at day 7 post-infection and stored at −20° C. In some cases, the compounds were added to the cells prior to viral challenge.” left out

gp120 YU2 (R5) [2] = target: T1, gp120 YU2 (R5) (Human immunodeficiency virus type 1 group M subtype B, UniProt P35961); test: Biacore (SPR): gp120 YU2 / mAb17b interaction; format: binding, HIV; conditions: for mAb17b binding to gp120 YU2(R5)-coated surface pretreated with the compound: 100 nM compound, mAb17b 15 μg/ml (FIG. 5A-C); for binding of gp120 YU2 in complex with the compound to mAb17b-coated surface: mAb17b-coated surface (FIG. 5G)
T1 construct: Two different gp120 were used
Experimental: (§3) Two different gp120 were used, originating from a type X4 isolate (gp120 MN) and a type R5 isolate (gp120 YU2). The capacity of different molecules to inhibit gp120 interactions with various receptors or co-receptors is measured by surface plasmonic resonance (Biacore).
To do this, proteins (in this case gp120 envelop proteins) can be immobilized on the surface of a biosensor (Sensorchip CM 4 Biacore) in accordance with the described procedure (Vives et al. J. Biol. Chem. 279, 54327-54333, 2005).
The interaction signal between gp120 and mAb17b is measured as a function of time.

gp120 YU2 (R5) [3] = target: T1, gp120 YU2 (R5); test: Biacore (SPR): gp120 YU2 binding to sCD4-coated surface; design: species or system HIV; conditions: sCD4-coated surface (FIG. 5H)
Experimental: as §3
In another set of experiments, sCD4 is coated on the surface, and gp120 alone (grey line) or pre-incubated with the compounds to be tested are injected onto these surfaces (FIGS. 5E and 5H). The interaction signal between gp120 and sCD4 is measured as a function of time.

gp120 MN (X4) = target: T2, gp120 MN (X4) (Human immunodeficiency virus type 1 group M subtype B, UniProt P05877); format: binding, HIV; conditions: heparin-coated surface (FIG. 5F)
T2 construct: Two different gp120 were used, originating from a type X4 isolate (gp120 MN)
Experimental: as §3
In another set of experiments, heparin is coated on the surface, and gp120 alone (grey line) or pre-incubated with the compounds to be tested are injected onto these surfaces (FIG. 5F). The interaction signal between gp120 and heparin is measured as a function of time.

Row | Structure (SMILES) | ED70 92HT599 (HIV-1 92HT599 (B-X4)) [nM] | ED90 92HT599 (HIV-1 92HT599 (B-X4)) [nM] | ED70 92UG029 (HIV-1 92UG029 (A-X4)) [nM] | ED90 92UG029 (HIV-1 92UG029 (A-X4)) [nM] | ED70 92US723 (HIV-1 92US723 (B-R5/X4)) [nM] | ED90 92US723 (HIV-1 92US723 (B-R5/X4)) [nM] | ED70 96USHIPS4 [1] [nM] | ED90 96USHIPS4 [1] [nM] | ED70 98IN017 (HIV-1 98IN017 (C-X4)) [nM] | ED90 98IN017 (HIV-1 98IN017 (C-X4)) [nM] | ED70 SF162 (HIV-1 SF162 (B-R5)) [nM] | ED90 SF162 (HIV-1 SF162 (B-R5)) [nM] | EC50 (SHIVsf162p3; 1st experiment, read-out: EC50 1st experiment) [nM] | EC50 (SHIVsf162p3; 2nd experiment, read-out: EC50 2nd experiment) [nM] | antiviral activity against clinical isolates (in words) (clinical HIV-1 isolates) | mAb17b binding to gp120 YU2(R5)-coated surface pretreated with the compound (gp120 YU2 (R5) [2]) | binding of gp120 YU2 in complex with the compound to mAb17b-coated surface (gp120 YU2 (R5) [2]) | binding of gp120 YU2 in complex with the compound to sCD4-coated surface (gp120 YU2 (R5) [3]) | binding of gp120 MN in complex with the compound to heparin-coated surface (gp120 MN (X4))
1 | CC(C)C[C@@H]1NC(=O)CNC(=O)[C@H](CC(C)C)NC(=O)[C@H](CO)NC(=O)[C@H](CO)NC(=O)[C@@H]2CSSC[C@@H](C(=O)N[C@H](C(N)=O)C(C)C)NC(=O)[C@H](C)NC(=O)[C@@H]3CSSC[C@H](NC(=O)[C@H](CCCCN)NC(=O)[C@H](Cc4c[nH]cn4)NC(=O)[C@H](CC(C)C)NC(=O)[C@H](CC(N)=O)NC(=O)CCSSC[C@H](NC(=O)[C@H](CCCNC(=N)N)NC(=O)CNC(=O)[C@H](CC(C)C)NC1=O)C(=O)N[C@@H](C)C(=O)NCC(=O)N[C@@H](CO)C(=O)N[C@@H](Cc1ccc(-c4ccccc4)cc1)C(=O)N3)C(=O)N[C@@H](CCC(N)=O)C(=O)N[C@@H](CC(C)C)C(=O)N[C@@H](CCCNC(=N)N)C(=O)N2 [mCD4, reference compound] | >500 | >500 | >500 | >500 | 34 ± 10 | 52 ± 22 | >500 | >500 | >500 | >500 | 352 ± 105 | >500 | 4620 | 6130 | only poorly active or inactive | binds and unmasks the CD4i epitope | enhanced | partially inhibited | not inhibited
2 | CC(C)C[C@@H]1NC(=O)CNC(=O)[C@H](CC(C)C)NC(=O)[C@H](CO)NC(=O)[C@H](CO)NC(=O)[C@@H]2CSSC[C@@H](C(=O)N[C@H](C(N)=O)C(C)C)NC(=O)[C@H](C)NC(=O)[C@@H]3CSSC[C@H](NC(=O)[C@H](CCCCNC(=O)CCOCCOCCNC(=O)CCN4C(=O)CC(SCCC(=O)NCCCC(=O)N[C@@H](CO)C(=O)N[C@@H](Cc5ccc(OS(=O)(=O)O)cc5)C(=O)N[C@@H](CC(=O)O)C(=O)N[C@@H](Cc5ccc(OS(=O)(=O)O)cc5)C(=O)N[C@@H](CO)C(=O)N[C@@H](Cc5ccc(OS(=O)(=O)O)cc5)C(=O)N[C@@H](CC(=O)O)C(=O)N[C@@H](Cc5ccc(OS(=O)(=O)O)cc5)C(=O)N[C@@H](CO)C(=O)N[C@@H](Cc5ccc(OS(=O)(=O)O)cc5)C(=O)N[C@@H](CC(=O)O)C(=O)N[C@@H](Cc5ccc(OS(=O)(=O)O)cc5)C(=O)N[C@@H](CO)C(=O)O)C4=O)NC(=O)[C@H](Cc4c[nH]cn4)NC(=O)[C@H](CC(C)C)NC(=O)[C@H](CC(N)=O)NC(=O)CCSSC[C@H](NC(=O)[C@H](CCCNC(=N)N)NC(=O)CNC(=O)[C@H](CC(C)C)NC1=O)C(=O)N[C@@H](C)C(=O)NCC(=O)N[C@@H](CO)C(=O)N[C@@H](Cc1ccc(-c4ccccc4)cc1)C(=O)N3)C(=O)N[C@@H](CCC(N)=O)C(=O)N[C@@H](CC(C)C)C(=O)N[C@@H](CCCNC(=N)N)C(=O)N2 (some centres unmarked) [mCD4-P3YSO3] | 1.3 ± 0.9 | 3.5 ± 0.0 | 0.3 ± 0.1 | 0.8 ± 0.3 | 0.35 ± 0.2 | 0.45 ± 0.2 | 1.6 ± 1.2 | 3 ± 1.4 | 147 ± 9 | >500 | 0.4 ± 0.3 | 0.9 ± 0.2 | – | – | – | fully inhibits | fully inhibited | fully inhibited | only partially inhibited
